Results taken from article PMC11315280.

Key:
[1] = biological target: Sumo-Fur (Staphylococcus aureus Newman) (UniProt Q9R303); test: EMSA; conditions: Fur EMSA/footprint: 10 mM Tris-borate pH 8.0, 1 mM MgCl2, 25 mM KCl, 100 uM MnCl2, 50 ug/mL BSA, room temp 20 min, competition EMSA same plus 20 mM citrate, 25 C, recombinant protein, residues 1-149, protein details: N-terminal Sumo (pET28a-sumo), Ni-NTA purified, probe letters rebuilt from the primers and the genome
[2] = biological target: Sumo-Fur (Staphylococcus aureus Newman) (UniProt Q9R303); test: DNase I footprinting; conditions: 100 uM Mn2+; Fur EMSA/footprint: 10 mM Tris-borate pH 8.0, 1 mM MgCl2, 25 mM KCl, 100 uM MnCl2, 50 ug/mL BSA, room temp 20 min; competition EMSA same plus 20 mM citrate, 25 C; recombinant protein; residues 1-149; protein details: N-terminal Sumo (pET28a-sumo), Ni-NTA purified; label: 5'-FAM on forward strand; probe letters rebuilt from the primers and the genome
[3] = biological target: Fur (Sumo removed) (Staphylococcus aureus Newman) (UniProt Q9R303); test: EMSA competition; conditions: 20 mM citrate, 100 uM Mn2+, competes with prebound CcpE and is competed by CcpE; Fur EMSA/footprint: 10 mM Tris-borate pH 8.0, 1 mM MgCl2, 25 mM KCl, 100 uM MnCl2, 50 ug/mL BSA, room temp 20 min; competition EMSA same plus 20 mM citrate, 25 C; recombinant protein; residues 1-149; probe letters rebuilt from the primers and the genome

GGCTGGGACATAAATCAATATTCTATGCTCTACGAAGTTATATTGGCAGTAGTTGACTGAACGAAAATGCGCTTGTAACAAGCTTTTTTCAATTCTAGTCAGGGGCCCCAACACAGAGAATTTCGAAAAGAAATTCTACAGGCAATGCGAGTTGGGGTGAGGGCCCCAACACAGAAGCTGACGAAAAGTCAGCTTACAATAATGTGCAAGTTGGGGATGGGCCCCAACAAAGAGAAATTGGATTCCCAATTTCTACAGACAATGCAAGTTGGGGTGGGACGACGAAATAAATTTTGCGAAAATATCATTTCTGTCCCACTCCCATCAAAAGAATGACATTGAAAAAAATATTAAAGTTTGGTGCCATAATTTTCTTTCTGCTCAATGAAATAATACGTTTAAAAATTGAATTGAATCATTCGCGAAATTGATAATTATTCTCAATTAATAAAAAATACTTATTACACCTTACCTGTATGATAAGTTTTGCTTATATACTCTGATTAAAAAGTCAAAACCTAAATTAAGCGTTTTCTAAGCATGATGAGTTGTTTATCAATAAATATAATAATACAATTTAATCAAGGCATATAAATATAAAAATGTATCAAGGGGGATCATTAAATGGCTGCAAATTTTAAAGAGCAATCAAAAAAACATTTTGACTTGAATGGCCAAAGTTATACTTACTATGATTT (double strand) [citB promoter (citB-p), EMSA]
binding result ([1]; 100 uM Mn2+, concentration dependent): binds

GGCTGGGACATAAATCAATATTCTATGCTCTACGAAGTTATATTGGCAGTAGTTGACTGAACGAAAATGCGCTTGTAACAAGCTTTTTTCAATTCTAGTCAGGGGCCCCAACACAGAGAATTTCGAAAAGAAATTCTACAGGCAATGCGAGTTGGGGTGAGGGCCCCAACACAGAAGCTGACGAAAAGTCAGCTTACAATAATGTGCAAGTTGGGGATGGGCCCCAACAAAGAGAAATTGGATTCCCAATTTCTACAGACAATGCAAGTTGGGGTGGGACGACGAAATAAATTTTGCGAAAATATCATTTCTGTCCCACTCCCATCAAAAGAATGACATTGAAAAAAATATTAAAGTTTGGTGCCATAATTTTCTTTCTGCTCAATGAAATAATACGTTTAAAAATTGAATTGAATCATTCGCGAAATTGATAATTATTCTCAATTAATAAAAAATACTTATTACACCTTACCTGTATGATAAGTTTTGCTTATATACTCTGATTAAAAAGTCAAAACCTAAATTAAGCGTTTTCTAAGCATGATGAGTTGTTTATCAATAAATATAATAATACAATTTAATCAAGGCATATAAATATAAAAATGTATCAAGGGGGATCATTAAATGGCTGCAAATTTTAAAGAGCAATCAAAAAAACATTTTGACTTGAATGGCCAAAGTTATACTTACTATGATTT (double strand) [citB promoter, footprinting]
binding result [2]: binds

TAATTCAAAGTACCGCTATCTGCGGCATTTGCAGAATTACTGAATGTCGCGATGATGATAATTAACGCTAAAATCGTTGTATTAAAAACTTTTAAAATATTTTTCAAAACATAATCCTCCTTTTTATGATTGCTTTTAAGTCTTTAGTAAAATCATAAATAATAATGATTATCATTGTCAATATTTATTTTATAATCAATTTATTATTGTTATACGAAAATAGATGTGCTAGTATAATTGATAACCATTATCAATTGCAATGGTTAATCATCTCATATAACAACACATAATTTGTATCCTTAGGAGGAAAACAACATGACAAAACATTATTTAAACAGTAAGTATCAATCAGAACAACG (double strand) [isdC promoter (isdA-isdC intergenic), EMSA]
binding result ([1]; 100 uM Mn2+, no citrate): binds | binding result ([1]; 20 mM citrate plus increasing Mn2+, dose-dependent restoration): binds | binding result [3]: binds

TAATTCAAAGTACCGCTATCTGCGGCATTTGCAGAATTACTGAATGTCGCGATGATGATAATTAACGCTAAAATCGTTGTATTAAAAACTTTTAAAATATTTTTCAAAACATAATCCTCCTTTTTATGATTGCTTTTAAGTCTTTAGTAAAATCATAAATAATAATGATTATCATTGTCAATATTTATTTTATAATCAATTTATTATTGTTATACGAAAATAGATGTGCTAGTATAATTGATAACCATTATCAATTGCAATGGTTAATCATCTCATATAACAACACATAATTTGTATCCTTAGGAGGAAAACAACATGACAAAACATTATTTAAACAGTAAGTATCAATCAGAACAACG (double strand) [isdC promoter (isdA-isdC intergenic), footprinting]
binding result [2]: binds
